Pooled drug test results. Numbers come from NIAID ChemDB, via PubChem.

Common to all: toxicity to cultured cells; cells: Jurkat cells; endpoint: CC50

Two numbers with a dash give a range or band. An empty or dashed field is not shown. Lines come from different laboratories, so protocols vary. CCn: concentration that lowers growth or viability of the cells by n%.

compound,read by,result
COc1cc(OC)c2c(=O)cc(-c3ccc(OCCCN)c(NC(=O)CCCN(C)C)c3)n(C)c2c1,MTT,>100 µM
CC[C@@H]1/C=C(\C)C[C@H](C)C[C@H](OC)[C@H]2O[C@@](O)(C(=O)C(=O)N3CCCC[C@H]3C(=O)O[C@H](/C(C)=C/[C@H]3CC[C@H](O)[C@H](OC)C3)[C@H](C)[C@@H](O)CC1=O)[C@H](C)C[C@@H]2OC,-,50 µg/mL
CNc1cc2c(=O)c(C(=O)O)cn(C)c2cc1N1CCN(c2ccccn2)CC1,MTT,58.36 µM
COc1cc2c(cc1OCCC(=O)Nc1cc(C(=O)Nc3cc(C(=O)NCCC(=N)N)n(C)c3)n(C)c1)N=C[C@@H]1CCCN1C2=O,-,76 µM
NC(=O)n1c(O)c(C(=O)c2cccs2)c2cc(Cl)ccc21,trypan blue,73 µM
COc1ccc(-c2cc(=S)ss2)cc1,-,>100 µM
NCCCC[C@H](COC(=O)O)NC(=O)CN(CCCCN)C(=O)OC[C@@H](N)CCCN=C(N)N,-,>100 µM
COc1c(/C=C/C(=O)c2ccc(F)cc2)ccc2ccccc12,MTT,3–15 µM
O=c1cc(-c2cccc3c2Sc2ccccc2S3)oc(N2CCOCC2)c1,MTS,>10 µM
Cc1[nH]c2ccccc2c1CCNCc1ccc(/C=C/C(=O)NO)cc1,fluorescence,>5 µM
COc1c(/C=C/C(=O)c2ccc(Cl)cc2)ccc2ccccc12,MTT,3–15 µM
O=C(NCc1cccs1)c1nn2c(c1Cl)N[C@H](c1ccco1)C[C@@H]2C(F)(F)F,ATP,>100 µM
C/C(=N\NC(=O)c1ccc(Cl)cc1)c1cccc(/C(C)=N/NC(=O)c2ccc(Cl)cc2)n1,MTT,>100 µM
COc1cc(OC)c2c(=O)cc(-c3ccc(O)c(N)c3)n(C)c2c1,MTT,>100 µM
C[C@H]1[C@H](O)[C@@H](C)/C=C/C=C/C=C/C=C/C=C/C=C/C=C/[C@H](O[C@@H]2O[C@H](C)[C@@H](O)[C@H](N)[C@@H]2O)C[C@@H]2O[C@](O)(C[C@@H](O)C[C@@H](O)CC[C@H](O)[C@@H](O)C[C@@H](O)CC(=O)O[C@H]1C)C[C@H](O)[C@H]2C(=O)O,MTT,>10 µM
COC(=O)CCOc1cc2c(cc1OC)C(=O)N1CCC[C@H]1C=N2,-,0.06 µM
COc1c(/C=C/C(=O)c2ccc(Br)cc2)ccc2ccccc12,MTT,3–15 µM
CCOC(=O)P(=O)(O)OC[C@H]1O[C@@H](n2cc(C)c(=O)[nH]c2=O)C[C@@H]1N=[N+]=[N-],-,>100 µM
COC(=O)C1=C2Nc3ccccc3[C@@]23CCN2C[C@]4(C[C@@H]5C[C@]67CC(=O)O[C@H]6CCC6NC[C@@]8(c9cccc(OC)c9N(C4)[C@@]58O)[C@@H]67)[C@@H]4OCC[C@]4(C1)[C@H]23,absorbance,11 µM
COc1cc(OC)c2c(=O)cc(-c3ccc(OCCCN4CCCCC4)c(N)c3)n(C)c2c1,MTT,>100 µM
O=C(O)CS(=O)c1ccc2c3c(cccc13)C(=O)c1ccccc1-2,fluorescence,>10 µM
COc1cc2c(cc1OCCC(=O)Nc1cc(C(=O)Nc3cc(C(=O)Nc4cc(C(=O)NCCC(=N)N)n(C)c4)n(C)c3)n(C)c1)N=C[C@@H]1CCCN1C2=O,-,62 µM
C[C@H]1[C@@H](OC(=O)CCC(=O)O)O[C@@H]2O[C@@]3(C)CC[C@H]4[C@H](C)CC[C@@H]1[C@@]24OO3,-,>0.6 µM

3 of the rows above, restated:

compound	read by	result
O=C(NCc1cccs1)c1nn2c(c1Cl)N[C@H](c1ccco1)C[C@@H]2C(F)(F)F	ATP	>100 µM
COC(=O)C1=C2Nc3ccccc3[C@@]23CCN2C[C@]4(C[C@@H]5C[C@]67CC(=O)O[C@H]6CCC6NC[C@@]8(c9cccc(OC)c9N(C4)[C@@]58O)[C@@H]67)[C@@H]4OCC[C@]4(C1)[C@H]23	absorbance	11 µM
C[C@H]1[C@H](O)[C@@H](C)/C=C/C=C/C=C/C=C/C=C/C=C/C=C/[C@H](O[C@@H]2O[C@H](C)[C@@H](O)[C@H](N)[C@@H]2O)C[C@@H]2O[C@](O)(C[C@@H](O)C[C@@H](O)CC[C@H](O)[C@@H](O)C[C@@H](O)CC(=O)O[C@H]1C)C[C@H](O)[C@H]2C(=O)O	MTT	>10 µM